Tested on: influenza A2 virus Aichi/2/68
Test: preventive control of influenza A2 in mice, compound I at different levels
Type: in vivo, influenza A2 virus Aichi/2/68 (in Charles River white mice)

`N[C@H]1C[C@@H]2C[C@H]1c1ccccc12` (relative stereo) [Compound I] was tested, and the Mean survival time (40 mg/kg) was 10.5 days, the “Mean survival time increase” value (40 mg/kg) was 0.4 days and the Mean survival time (55 mg/kg) was 11.2 days. The “Mean survival time increase” value (55 mg/kg) was 1.1 days, the Mean survival time (70 mg/kg) was 12.4 days and the “Mean survival time increase” value (70 mg/kg) was 2.3 days. For the same compound, the Mean survival time (85 mg/kg) was 12.9 days, the “Mean survival time increase” value (85 mg/kg) was 2.8 days and the Mean survival time (100 mg/kg) was 13.6 days. For the same compound, the “Mean survival time increase” value (100 mg/kg) was 3.5 days.
